Measurements reported in PubChem BioAssay AID624099 (ICCB-Longwood, 2012)
Shown is one part, drawn at random, of about 21,000 reagents tested. In the full data, 497 (2.4%) are marked active. 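Higher z means weaker E2 silencing; only reporter increases were scored, and knock-downs that hurt cell survival may mask genuine repressor factors.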

- Purpose: 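Human genes that papillomavirus E2 requires to repress the HPV18 LCR promoter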 (primary screen)
- System: human C33A cervical carcinoma cells (HPV-negative) stably expressing BPV1 E2 and an HPV18 LCR luciferase reporter
- Reagents: siRNA pool against human genes, 40 nM
- Timing: 72 h
- Detection: 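Per-well luciferase luminescence, z-scored on each plate against the plate mean and SD with control wells left out, then averaged across three replicate plates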
- Reading the numbers: mean z-score and z-score: higher = stronger reporter signal, weaker E2 silencing
- Call rule: 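Hit if mean z-score reaches 2 and two or more of three replicate z-scores also reach 2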

{"gene knocked down":"VRK1","PubChem SID":"SID56478850","mean z-score":0.17,"z-score, replicate A":0.2,"z-score, replicate B":-0.06,"z-score, replicate C":0.36,"Outcome":"inactive"}
{"gene knocked down":"ULK2","PubChem SID":"SID56479062","mean z-score":-0.95,"z-score, replicate A":-1,"z-score, replicate B":-1.04,"z-score, replicate C":-0.82,"Outcome":"inactive"}
{"gene knocked down":"ABLIM1","PubChem SID":"SID134315668","mean z-score":0.08,"z-score, replicate A":-0.07,"z-score, replicate B":0.27,"z-score, replicate C":0.05,"Outcome":"inactive"}
{"gene knocked down":"AK3","PubChem SID":"SID56479080","mean z-score":-0.38,"z-score, replicate A":-0.35,"z-score, replicate B":-0.35,"z-score, replicate C":-0.43,"Outcome":"inactive"}
{"gene knocked down":"FAM20B","PubChem SID":"SID134324807","mean z-score":0.64,"z-score, replicate A":0.6,"z-score, replicate B":0.7,"z-score, replicate C":0.61,"Outcome":"inactive"}
{"gene knocked down":"NANOS3","PubChem SID":"SID134329010","mean z-score":0.35,"z-score, replicate A":0.56,"z-score, replicate B":0.17,"z-score, replicate C":0.31,"Outcome":"inactive"}
{"gene knocked down":"TENT5C","PubChem SID":"SID134324351","mean z-score":-1,"z-score, replicate A":-1.2,"z-score, replicate B":-0.96,"z-score, replicate C":-0.84,"Outcome":"inactive"}
{"gene knocked down":"FAAP100","PubChem SID":"SID134321097","mean z-score":0.34,"z-score, replicate A":0.33,"z-score, replicate B":0.45,"z-score, replicate C":0.23,"Outcome":"inactive"}
{"gene knocked down":"P2RY6","PubChem SID":"SID134310535","mean z-score":-0.17,"z-score, replicate A":-0.11,"z-score, replicate B":-0.44,"z-score, replicate C":0.03,"Outcome":"inactive"}
{"gene knocked down":"ASS1","PubChem SID":"SID134314838","mean z-score":-0.41,"z-score, replicate A":-0.13,"z-score, replicate B":-0.17,"z-score, replicate C":-0.92,"Outcome":"inactive"}
{"gene knocked down":"GZMA","PubChem SID":"SID134311315","mean z-score":0.11,"z-score, replicate A":-0.15,"z-score, replicate B":0.22,"z-score, replicate C":0.25,"Outcome":"inactive"}
{"gene knocked down":"CTSD","PubChem SID":"SID134309991","mean z-score":-0.93,"z-score, replicate A":-1.02,"z-score, replicate B":-1,"z-score, replicate C":-0.76,"Outcome":"inactive"}
{"gene knocked down":"POU2AF1","PubChem SID":"SID134323870","mean z-score":-1.31,"z-score, replicate A":-1.26,"z-score, replicate B":-1.2,"z-score, replicate C":-1.46,"Outcome":"inactive"}
{"gene knocked down":"LIMS3","PubChem SID":"SID134319179","mean z-score":-1.15,"z-score, replicate A":-1.25,"z-score, replicate B":-1.81,"z-score, replicate C":-0.39,"Outcome":"inactive"}
{"gene knocked down":"RPL34P34","PubChem SID":"SID134325922","mean z-score":-3.84,"z-score, replicate A":-3.32,"z-score, replicate B":-4.05,"z-score, replicate C":-4.14,"Outcome":"inactive"}
{"gene knocked down":"FCSK","PubChem SID":"SID56479171","mean z-score":-0.6,"z-score, replicate A":-0.15,"z-score, replicate B":-0.87,"z-score, replicate C":-0.77,"Outcome":"inactive"}
{"gene knocked down":"PLA1A","PubChem SID":"SID134313284","mean z-score":2.6,"z-score, replicate A":3.11,"z-score, replicate B":2.28,"z-score, replicate C":2.4,"Outcome":"active"}
{"gene knocked down":"TAS2R60","PubChem SID":"SID134322140","mean z-score":0.54,"z-score, replicate A":0.46,"z-score, replicate B":0.77,"z-score, replicate C":0.39,"Outcome":"inactive"}
{"gene knocked down":"CDH4","PubChem SID":"SID134309983","mean z-score":0.04,"z-score, replicate A":0.24,"z-score, replicate B":0.09,"z-score, replicate C":-0.22,"Outcome":"inactive"}
{"gene knocked down":"OR6F1","PubChem SID":"SID134329904","mean z-score":0.24,"z-score, replicate A":0.41,"z-score, replicate B":0.09,"z-score, replicate C":0.22,"Outcome":"inactive"}
{"gene knocked down":"B3GNT8","PubChem SID":"SID134329269","mean z-score":1.59,"z-score, replicate A":1.44,"z-score, replicate B":1.75,"z-score, replicate C":1.58,"Outcome":"inactive"}

2 of these entries, set out differently.
gene knocked down | PubChem SID | mean z-score | z-score, replicate A | z-score, replicate B | z-score, replicate C | Outcome
PLA1A | SID134313284 | 2.6 | 3.11 | 2.28 | 2.4 | active
TAS2R60 | SID134322140 | 0.54 | 0.46 | 0.77 | 0.39 | inactive
